Reference: patent US20070003608A1, “Compounds, compositions and methods for the treatment of viral infections and other medical disorders” (priority 2005, published 2007)

Columns and labels:
Type in all cases: cell-based
HSV-1 = HSV-1 antiviral assay, HSV DNA quantified by nucleic acid hybridization in MRC-5 cells; details: CC50/EC50; Table 7
[1] = system: Human Cytomegalovirus (HCMV); assay: HCMV antiviral assay, HCMV DNA quantified by DNA hybridization in MRC-5 cells
HIV-1 = HIV-1 plaque reduction assay in HT4-6C cells; details: CC50/EC50; Table 6
[2] = CC50/EC50, HCMV in MRC-5, Table 2
[3] = against HCMV, CEM CC50 over HCMV EC50, rapidly dividing cells

CCCCCCCCCCCCCCCCCCOCCOP(=O)(O)COC(CO)Cn1ccc(N)nc1=O (centres unmarked) [1-O-octadecylpropanediol-2-CDV, 1-O-octadecylethanediol-2-cidofovir]
Selectivity Index (HSV-1): 105,000

CCCCCCCCCCCCCCCCCCOCCOP1(=O)COC(Cn2ccc(N)nc2=O)CO1 (centres unmarked) [1-O-octadecylpropanediol-2-cCDV, 1-O-octadecylethanediol-2-cyclic cidofovir]
Selectivity Index (HSV-1): 40,000

CCCCCCCCCCCCCCCCCCOCCCOP1(=O)COC(Cn2ccc(N)nc2=O)CO1 (centres unmarked) [1-O-octadecylpropanediol-3-cCDV, 1-O -octadecylpropanediol-3-cyclic cidofovir]
Selectivity Index (HSV-1): 970

Nc1ncnc2c1ncn2CCOCP(=O)(O)O [Adefovir, adefovir, reference compound]
Selective Index [1, 2]: >18 | Selectivity Index (HIV-1): >122

Nc1ccn(C[C@@H](CO)OCP(=O)(O)O)c(=O)n1 [CDV, cidofovir, reference compound]
Selective Index [1, 2]: >2174 | Selective Index [1, 3]: 1,900 | Selectivity Index (HSV-1): >800

CCCCCCCCCCCCCCCCOCCCOP(=O)(O)COCCn1cnc2c(N)ncnc21 [HDP-ADV, 1-O-hexadecylpropanediol-3-adefovir]
Selective Index [1, 2]: 65 | Selectivity Index (HIV-1): 813

CCCCCCCCCCCCCCCCOP1(=O)CO[C@@H](Cn2ccc(N)nc2=O)CO1 (some centres unmarked) [Hexadecyl-cCDV, hexadecyl cyclic cidofovir]
Selective Index [1, 2]: 163

Nc1ccn(C[C@H]2COP(=O)(O)CO2)c(=O)n1 [cCDV, cyclic cidofovir, reference compound]
Selective Index [1, 2]: >2128 | Selective Index [1, 3]: >2,100 | Selectivity Index (HSV-1): >475
